# Measurements: patent US20240383784A1, “ANTIMICROBIAL SYSTEM AND METHOD” (KEMIRA OYJ, priority 2021, published 2024)
# Assay: Corrosion testing following ASTM G31-72, steel coupons in white water / process water
# Details: Example 3; 0.08 ppm Compound A; all coupons; 7 days, 55° C.
smiles,measurement,value
"Cc1ccc(S(=O)(=O)C=CC#N)cc1 [Compound A, 3-[(4-methylphenyl)sulphonyl]-2-propenenitrile]",corrosion observed,no corrosion
